In patent publication US7678538B2, “Disinfection of biological fluids using asymmetric cyanine dyes” (American National Red Cross, priority 2005, dated 2010):

Tested on: RBCs
Experiment: Dye binding assay (spectroscopic, RBC supernatant)

## CN1/C(=C/c2cc[n+](C)c3ccccc23)Sc2ccccc21.Cc1ccc(S(=O)(=O)[O-])cc1 [TO, 1-methyl-4-[(3-methyl-2(3H)-benzothiazolylidene)methyl]quinoliniump-tosylate]
80 μM TO, 20% Hct RBCs in RAS-2, 60 minutes, peak approximately 470 nm, n=4
  decrease of supernatant adsorption peak after incubation with RBCs: 20.5±6.4%
TO, 20% hematocrit RBCs in RAS-2
  dye bound to RBCs: Approximately 21%
